Assay results: ChEMBL document CHEMBL1255439 (2010)

Tested on: Burkholderia pseudomallei
Test: Antibacterial activity against Burkholderia pseudomallei 1026b infected in mouse AMJ.2 cells assessed as intracellular bacterial load at 10 ug/ml after 24 hrs by serial dilution plating technique in presence of IFN-gamma-harboring cationic liposome-DNA complex (reference value: 1.9 X 10^6 CFU)

## CC(C)(O/N=C(\C(=O)N[C@@H]1C(=O)N2C(C(=O)[O-])=C(C[n+]3ccccc3)CS[C@H]12)c1csc(N)n1)C(=O)O
  log10cfu: 20000
